Tested on: S. nodorum
Experiment: Inhibitory effect of lytic peptides and hydrolytic enzymes against S. nodorum (microtiter plates, liquid pea medium, absorbance at 595 nm)
Format: cell-based, Septoria nodorum
Procedure: Microtiter plates were selected to investigate the inhibitory effect of lytic peptides and hydrolytic enzymes against S. nodorum. Test substances were added to 90 ul liquid pea medium which had been previously inoculated with 2.0×10^4 spores/ml medium of the test pathogen to give a final volume of 100 ul. The blank value of the test substances were determined by adding them to uninoculated liquid pea medium. The plates were evaluated after incubation in a wet chamber at 23° C. on a shaker in the dark for 48 hours.
a. Hydrolytic enzymes were purified from ethylene-treated bean leaves by the procedure described in Example 1.
b. Lytic peptides: The following antimicrobial peptides were tested at 20 ppm, 60 ppm and 200 ppm concentrations:
d. Combinations of test substances: Table 3 illustrates the composition of test solutions which were tested in duplicate/triplicate samples.
e. Evaluation: The growth of the pathogen was recorded by measuring the absorbance of the medium at 595 nm. The average of duplicate/triplicate samples was calculated and the corresponding enzyme blank was subtracted to give the net absorption of the growing mycelium. The inhibitory effect of the test substances used was determined by calculating the growth of the pathogen as a percentage of water control.

SMILES: CC[C@H](C)[C@H](NC(=O)CN)C(=O)NCC(=O)N[C@@H](C)C(=O)N[C@H](C(=O)N[C@@H](CC(C)C)C(=O)N[C@@H](CCCCN)C(=O)N[C@H](C(=O)N[C@@H](CC(C)C)C(=O)N[C@H](C(=O)N[C@H](C(=O)NCC(=O)N[C@@H](CC(C)C)C(=O)N1CCC[C@H]1C(=O)N[C@@H](C)C(=O)N[C@@H](CC(C)C)C(=O)N[C@H](C(=O)N[C@@H](CO)C(=O)N[C@@H](Cc1c[nH]c2ccccc12)C(=O)N[C@H](C(=O)N[C@@H](CCCCN)C(=O)N[C@@H](CCCNC(=N)N)C(=O)N[C@@H](CCCCN)C(=O)N[C@@H](CCCNC(=N)N)C(=O)N[C@@H](CCC(N)=O)C(=O)N[C@@H](CCC(N)=O)C(N)=O)[C@@H](C)CC)[C@@H](C)CC)[C@@H](C)O)[C@@H](C)O)C(C)C)C(C)C [MELLITIN]
- FUNGAL GROWTH IN PERCENTAGE OF CONTROL (test solution 5: lytic peptide 20 ppm alone, 48 hours, 23° C.): 79.65 percentage of control
- FUNGAL GROWTH IN PERCENTAGE OF CONTROL (test solution 6: lytic peptide 60 ppm alone, 48 hours, 23° C.): 65.96 percentage of control
- FUNGAL GROWTH IN PERCENTAGE OF CONTROL (test solution 7: lytic peptide 200 ppm alone, 48 hours, 23° C.): 27.37 percentage of control
- FUNGAL GROWTH IN PERCENTAGE OF CONTROL (test solution 12: lytic peptide 20 ppm + chitinase 1/10 c): 62.81 percentage of control
- FUNGAL GROWTH IN PERCENTAGE OF CONTROL (test solution 13: lytic peptide 60 ppm + chitinase 1/10 c): 57.54 percentage of control
- FUNGAL GROWTH IN PERCENTAGE OF CONTROL (test solution 14: lytic peptide 200 ppm + chitinase 1/10 c): 22.46 percentage of control
- FUNGAL GROWTH IN PERCENTAGE OF CONTROL (test solution 15: lytic peptide 20 ppm + chitinase 1/100 c): 73.33 percentage of control
- FUNGAL GROWTH IN PERCENTAGE OF CONTROL (test solution 16: lytic peptide 60 ppm + chitinase 1/100 c): 65.26 percentage of control
- FUNGAL GROWTH IN PERCENTAGE OF CONTROL (test solution 17: lytic peptide 200 ppm + chitinase 1/100 c): 25.61 percentage of control
- FUNGAL GROWTH IN PERCENTAGE OF CONTROL (test solution 18: lytic peptide 20 ppm + beta-1,3-glucanase 1/10 c): 14.74 percentage of control
- FUNGAL GROWTH IN PERCENTAGE OF CONTROL (test solution 19: lytic peptide 60 ppm + beta-1,3-glucanase 1/10 c): 11.93 percentage of control
- FUNGAL GROWTH IN PERCENTAGE OF CONTROL (test solution 20: lytic peptide 200 ppm + beta-1,3-glucanase 1/10 c): 6.32 percentage of control
- FUNGAL GROWTH IN PERCENTAGE OF CONTROL (test solution 21: lytic peptide 20 ppm + beta-1,3-glucanase 1/100 c): 61.40 percentage of control
- FUNGAL GROWTH IN PERCENTAGE OF CONTROL (test solution 22: lytic peptide 60 ppm + beta-1,3-glucanase 1/100 c): 57.19 percentage of control
- FUNGAL GROWTH IN PERCENTAGE OF CONTROL (test solution 23: lytic peptide 200 ppm + beta-1,3-glucanase 1/100 c): 25.96 percentage of control
- FUNGAL GROWTH IN PERCENTAGE OF CONTROL (test solution 24: lytic peptide 20 ppm + chitinase 1/10 c + beta-1,3-glucanase 1/10 c): 10.53 percentage of control
- FUNGAL GROWTH IN PERCENTAGE OF CONTROL (test solution 25: lytic peptide 60 ppm + chitinase 1/10 c + beta-1,3-glucanase 1/10 c): 7.37 percentage of control
- FUNGAL GROWTH IN PERCENTAGE OF CONTROL (test solution 26: lytic peptide 200 ppm + chitinase 1/10 c + beta-1,3-glucanase 1/10 c): 0.00 percentage of control
- FUNGAL GROWTH IN PERCENTAGE OF CONTROL (test solution 27: lytic peptide 20 ppm + chitinase 1/100 c + beta-1,3-glucanase 1/100 c): 22.72 percentage of control
- FUNGAL GROWTH IN PERCENTAGE OF CONTROL (test solution 28: lytic peptide 60 ppm + chitinase 1/100 c + beta-1,3-glucanase 1/100 c): 22.11 percentage of control
- FUNGAL GROWTH IN PERCENTAGE OF CONTROL (test solution 29: lytic peptide 200 ppm + chitinase 1/100 c + beta-1,3-glucanase 1/100 c): 18.75 percentage of control

Source: patent US5348743A, “Anti-pathogenically effective compositions comprising lytic peptides and hydrolytic enzymes” (priority 1993, dated 1994)
